Measured values as given in US20140001056A1 (priority 2011, published 2014).

Sequences of proteins named here, by UniProt entry; tags and fusion partners are left off. A change or cut given only in a name is not applied to a line headed by its entry.
UniProt P09616: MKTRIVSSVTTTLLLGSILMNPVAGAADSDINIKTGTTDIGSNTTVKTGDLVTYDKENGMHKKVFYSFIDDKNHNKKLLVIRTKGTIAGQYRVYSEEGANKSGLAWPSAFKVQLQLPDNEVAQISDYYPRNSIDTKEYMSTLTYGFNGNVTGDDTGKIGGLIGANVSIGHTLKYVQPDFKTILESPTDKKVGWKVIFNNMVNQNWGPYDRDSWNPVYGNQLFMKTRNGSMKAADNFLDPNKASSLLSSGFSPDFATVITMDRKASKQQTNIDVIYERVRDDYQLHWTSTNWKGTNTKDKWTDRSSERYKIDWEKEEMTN

How the values were obtained:
[1] = molecular target: WT-α-HL heptamer (Staphylococcus aureus, UniProt P09616); assay: Planar lipid bilayer recording: insertion and function of α-HL heptamer; conditions: for insertion of α-HL heptamer into planar lipid bilayer: above the CMC in the cis compartment; for α-HL pore insertion into planar lipid bilayer: below the CMC in the cis compartment
[2] = molecular target: α-HL monomer (Staphylococcus aureus, UniProt P09616); assay: Planar lipid bilayer recording: insertion of α-HL monomer; conditions: above the CMC in the cis compartment

Substance	insertion of α-HL heptamer into planar lipid bilayer [1]	α-HL pore insertion into planar lipid bilayer [1]	insertion of α-HL monomer into planar lipid bilayer [2]	stopping membrane insertion of α-HL heptamers (titration) ([1]; 3 and 4 mM, cis)	single-channel IV curve of α-HL ([1]; F6FC 10 mM cis)	blockades or gating changes of α-HL pores already inserted ([1]; above the CMC, cis compartment)	stopping membrane insertion of α-HL heptamers (titration) ([1]; higher concentrations (6, 8, 9, 10 mM, cis))
C6F13C2H4—S-poly[tris(hydroxymethyl)aminomethane]	complete arrest	pore insertion events continued	complete arrest				
Fluorinated fos-choline	complete arrest	pore insertion events continued	complete arrest	not as effective	unchanged	did not cause blockades or changes in the gating	completely prevent
